# Positions that govern dimerization of the HIV-1 5' RNA

The 5' region of HIV-1 NL4-3 RNA (positions 1-437):
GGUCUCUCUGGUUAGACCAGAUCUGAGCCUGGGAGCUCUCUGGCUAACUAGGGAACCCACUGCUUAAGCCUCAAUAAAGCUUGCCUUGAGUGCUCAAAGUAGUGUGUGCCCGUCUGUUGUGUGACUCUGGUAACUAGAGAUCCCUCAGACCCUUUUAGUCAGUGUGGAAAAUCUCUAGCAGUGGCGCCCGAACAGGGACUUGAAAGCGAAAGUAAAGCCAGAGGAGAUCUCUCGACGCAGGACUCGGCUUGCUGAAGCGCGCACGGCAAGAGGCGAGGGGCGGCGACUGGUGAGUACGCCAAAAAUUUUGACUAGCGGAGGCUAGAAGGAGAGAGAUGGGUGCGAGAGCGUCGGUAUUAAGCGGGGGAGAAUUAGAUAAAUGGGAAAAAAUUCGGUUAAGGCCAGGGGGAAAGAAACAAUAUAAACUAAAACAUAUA

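Randomly mutated transcripts starting with one, two or three G (1G, 2G, 3G), capped or uncapped, were folded for 30 min at 37 °C. Monomer and dimer bands were cut from native gels after folding in high salt (300 mM KCl, 5 mM MgCl2) or low salt (40 mM KCl, 0.1 mM MgCl2). Mutation frequencies in the two bands give Kdimer.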

Values are log2 Kdimer, the median over the changes at each position: higher means that changes there hinder dimer formation, below 0 that they favour it.
One numbering serves 1G, 2G and 3G.
A position is written with its base where known.
Bases beyond 437 are not listed in the source.

position,domain,2G uncapped high-salt,3G capped low-salt,1G uncapped high-salt,2G uncapped low-salt
U24,TAR,0.16,-0.03,0.17,-0.04
C40,TAR,0.13,-0.17,0.02,0.09
A46,TAR,-0.12,-0.16,-0.05,-0.36
G52,TAR,0.05,0.04,0.19,0.05
C56,TAR,0.36,0.12,0.31,0.22
G62,PolyA,0.19,0.05,0.28,0.31
C63,PolyA,0.29,-0.13,0.43,0.06
A74,PolyA,0.04,0.00,0.10,0.14
U75,PolyA,0.14,-0.03,-0.04,0.01
A76,PolyA,0.26,0.04,0.11,0.18
G79,PolyA,0.11,0.54,0.25,0.36
C84,PolyA,-0.20,-0.41,-0.14,-0.48
A96,PolyA,0.09,0.01,0.07,0.10
G106,U5,-0.09,0.36,0.07,0.21
G119,none,0.05,-0.46,-0.08,-0.45
U120,none,0.12,0.76,0.17,0.09
A124,none,0.11,0.55,0.23,0.26
C142,PBS,0.09,0.12,-0.04,0.14
U145,PBS,0.10,0.18,0.14,0.23
C146,PBS,0.16,0.02,0.04,0.10
G148,PBS,0.34,0.42,0.24,0.27
U159,PBS,-0.07,-0.14,0.19,0.14
A180,PBS,0.11,-0.24,0.19,-0.12
C185,PBS,-0.10,-0.46,0.16,-0.37
G190,PBS,0.16,0.40,0.12,0.37
G196,PBS,0.61,0.87,0.39,0.45
A198,PBS,0.17,-0.48,0.22,-0.29
G206,PBS,-0.38,-1.10,-0.39,-0.81
A209,PBS,1.15,0.91,0.84,0.86
U213,PBS,-0.23,-0.53,0.39,-0.22
G217,antiPAS,-0.64,-1.24,-0.54,-1.08
C245,SL1,1.26,2.06,1.39,1.79
G247,SL1,-0.52,-1.27,-0.56,-1.28
A263,SL1,0.30,1.13,0.34,1.04
G273,SL1,-0.30,-0.11,-0.50,-0.67
A302,none,0.15,-0.01,0.02,-0.20
A330,none,0.17,0.42,0.21,0.28
G338,AUG,-0.15,0.66,0.16,0.34
G340,AUG,-0.09,0.87,0.05,0.29
A345,none,0.16,0.08,0.26,0.00
G353,none,0.03,0.59,0.00,0.28
A356,none,-0.03,-0.11,0.07,-0.12
G367,none,0.31,-0.07,0.26,0.23
A368,none,0.14,0.15,0.18,0.10
A374,none,0.09,0.10,0.11,0.01
U381,none,-0.04,0.02,0.00,-0.08
G383,none,0.13,0.22,0.13,0.19
A386,none,0.05,-0.03,0.12,0.00
C393,none,0.17,0.10,0.02,0.03
U396,none,0.11,0.07,0.14,-0.08
C402,none,-0.12,-0.10,0.02,-0.25
G409,none,-0.02,0.00,0.08,0.02
A412,none,0.03,-0.03,0.03,0.02
470,none,0.00,0.17,0.02,-0.03
474,none,0.01,0.01,0.08,0.04
477,none,-0.09,-0.13,0.03,-0.04
481,none,-0.10,-0.09,-0.12,0.00
482,none,0.01,-0.05,0.11,-0.01
491,none,0.06,0.12,-0.02,-0.10

The first 4 entries again:

| position | domain | 2G uncapped high-salt | 3G capped low-salt | 1G uncapped high-salt | 2G uncapped low-salt |
|---|---|---|---|---|---|
| U24 | TAR | 0.16 | -0.03 | 0.17 | -0.04 |
| C40 | TAR | 0.13 | -0.17 | 0.02 | 0.09 |
| A46 | TAR | -0.12 | -0.16 | -0.05 | -0.36 |
| G52 | TAR | 0.05 | 0.04 | 0.19 | 0.05 |

Reference: Ye et al. 2022, doi:10.1038/s41594-022-00746-2.